Data published in ChEMBL document CHEMBL4373723 (J Med Chem, 2019).

How the values were obtained:
[1] = target: Frizzled-7 (Homo sapiens, UniProt O75084); test: Binding affinity to recombinant human Frizzled-7 (Gln33 to Leu185 residues)/human IgG1 chimeric protein expressed in CHO cells assessed as association rate constant by SPR assay; assay type: cell-based
[2] = species on record: Homo sapiens; test: Modulation of Frizzled in human Caco2 cells assessed as protection against 0.25 to 1 ng/ml TcdB-induced cell rounding at 50 uM incubated for 24 hrs by phalloidin conjugated AlexaFluor488 dye based fluorescence microscopy relative to control

| SMILES | Ka [1] [×10⁵ /M/s] | Activity [2] |
| --- | --- | --- |
| CSCC[C@H](NC(=O)[C@@H](NC(=O)[C@H](Cc1cnc[nH]1)NC(=O)[C@H](C[Se][Se]C[C@H](NC(=O)[C@H](Cc1c[nH]c2ccccc12)NC(=O)[C@H](Cc1ccccc1)NC(=O)[C@H](CCC(=O)O)NC(=O)[C@H](CC(C)C)NC(=O)[C@H](CC(=O)O)NC(=O)[C@H](CC(=O)O)NC(=O)[C@H](CO)NC(C)=O)C(=O)N[C@@H](Cc1cnc[nH]1)C(=O)N[C@H](C(=O)N[C@@H](CCSC)C(=O)N[C@@H](Cc1ccc(O)cc1)C(N)=O)C(C)C)NC(=O)[C@H](Cc1c[nH]c2ccccc12)NC(=O)[C@H](Cc1ccccc1)NC(=O)[C@H](CCC(=O)O)NC(=O)[C@H](CC(C)C)NC(=O)[C@H](CC(=O)O)NC(=O)[C@H](CC(=O)O)NC(=O)[C@H](CO)NC(C)=O)C(C)C)C(=O)N[C@@H](Cc1ccc(O)cc1)C(N)=O | 52.7 |  |
| CSCC[C@H](NC(=O)[C@@H](NC(=O)[C@H](Cc1cnc[nH]1)NC(=O)[C@H](CSSC[C@H](NC(=O)[C@H](Cc1c[nH]c2ccccc12)NC(=O)[C@H](Cc1ccccc1)NC(=O)[C@H](CCC(=O)O)NC(=O)[C@H](C)NC(=O)[C@H](CC(=O)O)NC(=O)[C@H](CC(=O)O)NC(=O)[C@H](CO)NC(=O)[C@@H]1CCCN1C(=O)[C@H](CC(C)C)NC(C)=O)C(=O)N[C@@H](Cc1cnc[nH]1)C(=O)N[C@H](C(=O)N[C@@H](CCSC)C(=O)N[C@@H](Cc1ccc(O)cc1)C(N)=O)C(C)C)NC(=O)[C@H](Cc1c[nH]c2ccccc12)NC(=O)[C@H](Cc1ccccc1)NC(=O)[C@H](CCC(=O)O)NC(=O)[C@H](C)NC(=O)[C@H](CC(=O)O)NC(=O)[C@H](CC(=O)O)NC(=O)[C@H](CO)NC(=O)[C@@H]1CCCN1C(=O)[C@H](CC(C)C)NC(C)=O)C(C)C)C(=O)N[C@@H](Cc1ccc(O)cc1)C(N)=O |  | inactive |

Calls of active or inactive are those of the source. The calls are words filed in the database; no cut-off is given here.
